Earlier results on one molecule are cited in patent US7144731B2, “SCF antibody compositions and methods of using the same” (Amgen Inc., priority 1989, dated 2006).

In the series the test system is HIV. Particulars: other studies; cited from earlier work.

B1: IL-3: human interleukin-3 (protein, UniProt P08700 20-152, looked up)
Interleukin-3: APMTQTTPLKTSWVNCSNMIDEIITHLKQPPLPLLDFNNLNGEDQDILMENNLRRPNLEAFNRAVKSLQNASAIESILKNLLPCLPLATAAPTRHPIHIKDGDWNEFRRKLTFYLKTLENAQAQQTTLSLAIF
Take B1: the “replication of HIV in partially purified primary peripheral blood monocytes” value is listed as “significantly increase replication of HIV”.
